# Article doi:10.1101/2024.06.06.597810
# Molecular target: Biotin-labeled BtRf-BetaCoV stem helix peptide (BtRf-BetaCoV)
# Experiment: BLI
substance,measurement,value
S2P6 WT Fab,Kd,0.165 µM
